Experimental data published in patent US9375401B2, “Ophthalmic compositions with alkoxylated natural waxes” (Bausch & Lomb Incorporated, priority 2012, dated 2016).

Assay: PHMB uptake study
Details: overnight soak
[1] = BBS with 5.0 ppm PHMB (control)
[2] = BBS with 5.0 ppm PHMB plus 0.02 wt. % PEG-75 lanolin (test)

Substance: poly(hexamethylene biguanide) [PHMB]
- PHMB absorbed by PureVision lenses [1]: approximately 3.055 ppm
- uptake of PHMB by PureVision lenses [1]: approximately 62%
- PHMB absorbed by PureVision lenses [2]: approximately 1.907 ppm
- uptake of PHMB by PureVision lenses [2]: approximately 38%
- difference in percent uptake of PHMB by PureVision lenses (test versus control, [62−38]/62×100): about 39%
